Data from the supplement of paper PMC6522484.
± gives the standard deviation of the averaged measurements. The entries are a selection whose mix differs from that of the whole data set.

Columns and labels:
DLD1 [1] = assay: cell viability (CellTiter-Glo) relative to plate median (fraction of plate median); higher = more viable cells; conditions: 5 µM; treatment time 24 h; reporter: 7TFP
Summary of the method: (§1)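 Normalisation used webcellHTS2 in additive mode without log transformation, scaling each well's luminescence to the plate median. The luminescence was firefly luciferase or CellTiterGlo, read on a Tecan F500 from parallel plates of colorectal cancer cells stably transduced with lentiviral TCF/Wnt firefly luciferase reporters. Those cells had been given library compounds at a final 5 µM for 24 h, and two independent replicates were averaged.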

HCT116 = assay: as above; conditions: 5 µM; treatment time 24 h; reporter: TCF4/Wnt
Summary of the method: as §1

SW480 [2] = assay: as above; conditions: 5 µM; treatment time 24 h; reporter: 7TFP
Summary of the method: as §1

DLD1 [3] = assay: TCF/Wnt firefly luciferase reporter signal relative to plate median (fraction of plate median); higher = higher Wnt reporter signal; conditions: 5 µM; treatment time 24 h; reporter: 7TFP
Summary of the method: as §1

SW480 [4] = assay: as above; conditions: 5 µM; treatment time 24 h; reporter: 7TFP
Summary of the method: as §1

Row | Structure (SMILES) | cell viability (DLD1 [1]) | cell viability (HCT116) | cell viability (SW480 [2]) | TCF/Wnt firefly luciferase reporter signal (DLD1 [3]) | TCF/Wnt firefly luciferase reporter signal (SW480 [4])
1 | CC1=C[C@H]2O[C@@H]3C[C@H]4OC(=O)/C=C\C=C\C(=O)OCC/C(C)=C/C(=O)OC[C@@]2(CC1)[C@]4(C)[C@]31CO1 [Verrucarin J] | 0.911 ± 0.097 | 0.447 ± 0.026 | 1.05 ± 0.021 | 0.304 ± 0.081 | 0.299 ± 0.02
2 | CC(=O)O[C@@H]1C[C@H]2O[C@@H]3C(C)=CCC[C@]3(C)[C@]1(C)[C@]21CO1 [Trichodermin] | 0.907 ± 0.015 | 0.831 ± 0.063 | 0.951 ± 0.042 | 0.797 ± 0.15 | 0.835 ± 0.15
3 | CC1=C[C@H]2O[C@@H]3C[C@H]4OC(=O)/C=C\C=C\C(=O)OCC[C@@H](C)[C@H](O)C(=O)OC[C@@]2(CC1)[C@]4(C)[C@]31CO1 [Verrucarin A] | 0.896 ± 0.025 | 0.474 ± 0.14 | 1.08 | 0.254 ± 0.0099 | 0.325 ± 0.1
